{
  "source": "patent US12458691",
  "about": "(UNITED STATES OF AMERICA AS REPRESENTED BY THE SECRETARY …, dated 2025)",
  "key": {"[1]": {"target": "T1, FP8-1LSF (HIV-1 strain BG505)"}, "[2]": {"target": "FP8-1M6T (HIV-1 strain BG505)"}, "[3]": {"target": "T1, FP8-1LSF", "remark": "listed apart in the source"}},
  "note": "Read-outs that look alike come from different tables or passages of the source.",
  "data": [
    {"binder": "PGT151 (antibody, V domains shown) VH: RVQLVESGGGVVQPGKSVRLSCVVSDFPFSKYPMYWVRQAPGKGLEWVAAISGDAWHVVYSNSVQGRFLVSRDNVKNTLYLEMNSLKIEDTAVYRCARMFQESGPPRLDRWSGRNYYYYSGMDVWGQGTTVTVSS VL: DIVMTQTPLSLSVTPGQPASISCKSSESLRQSNGKTSLYWYRQKPGQSPQLLVFEVSNRFSGVSDRFVGSGSGTDFTLRISRVEAEDVGFYYCMQSKDFPLTFGGGTKVDLK", "values": [
      {"measurement": "Kd", "setting": "[1]", "result": 87.1, "unit": "nM"},
      {"measurement": "Kd", "setting": "[2]", "result": "> 2000", "unit": "nM"},
      {"measurement": "Kd", "setting": "[3]", "result": 6.1, "unit": "nM"}
    ]}
  ]
}
